Common to all, as to type: cell-based, Trypanosoma brucei
The subject of one test is Tbb msh2+/-. Put plainly: Alamar Blue assay on trypanosomes lacking one MSH2 allele. The following applies: read-out: Tbb msh2+/- (EC50; µM) AVG; average of at least 3 independent experiments. In general terms: The colour change of resazurin is a common sign of viable cells or microbes.
In a further test the test system is Tbb msh2+/+. Nature of the test: Alamar Blue assay on MMR-proficient control trypanosomes. The following applies: read-out: Tbb msh2+/+ (EC50; µM) AVG; average of at least 3 independent experiments.
Another test concerns Tbb msh2-/-. Put plainly: Alamar Blue assay on trypanosomes lacking both MSH2 alleles. The following applies: read-out: Tbb msh2-/- (EC50; µM) AVG; average of at least 3 independent experiments.

For `O=[As]c1ccccc1` (stereo not drawn), the EC50 in the test with Tbb msh2+/- stood at 0.0016 µM; in the test on Tbb msh2+/+ it was 0.00151 µM; in the test on Tbb msh2-/- it was 0.00093 µM.
